Results of unrelated studies side by side (data: NIAID ChemDB).

All rows: target-level tests; organism: HIV-1; protein: Reverse transcriptase; measure: IC50

ICn is the concentration giving n% inhibition. Lines come from different laboratories, so protocols vary. An empty or dashed field is not shown. a–b is a range or a potency band.

compound	strain or isolate	mutations	method	value
CC(C)(CO)Oc1ccc(NC(=O)CSc2nnnn2-c2ccc(C3CC3)cc2Cl)c(Cl)c1		RT-K103 Y181C	PicoGreen / fluorescence	<1 µM
COc1cc2c(cc1OC)CN(c1nn3c(C(F)F)nnc3c3ccccc13)CC2	KER2008		RT activity / fluorescence	4.05 µM
CC(=O)NC(C)(C)C#Cc1ccc(NC(=O)CSc2nnnn2-c2ccc(C3CC3)cc2Cl)c(Cl)c1		RT-K103 Y181C	PicoGreen / fluorescence	<1 µM
CCc1ccc(-n2c(Br)nnc2SCC(=O)Nc2ccc(C(=O)NCCC#N)cc2Cl)c2ccccc12		RT-Y181C	nucleotide incorporation / radiometric	0.05–0.1 µM
CCN1c2ncc(CCOc3ccc(C(=O)O)c4c3CCCC4)cc2C(=O)N(C)c2ccc(Cl)nc21	WT		nucleotide incorporation / radiometric	<0.1 µM
Cc1cc(C2CC2)c2ccccc2c1-n1c(Br)nnc1SCC(=O)Nc1ccc(C(=O)O)cc1Cl		RT-Y188L	nucleotide incorporation / radiometric	>0.1 µM
CC(C)(C#Cc1ccc(NC(=O)CSc2nnnn2-c2ccc(C(C)(C)C)cc2Cl)c(Cl)c1)OCC(=O)Nc1ccon1		RT-K103 Y181C	PicoGreen / fluorescence	<1 µM
Cc1cc(C(=O)O)ccc1NC(=O)CSc1nnc(Br)n1-c1ccc(C2CC2)c2ccccc12			nucleotide incorporation / radiometric	<0.05 µM
O=C(CSc1nnc(Br)n1-c1ccc(C2CC2)cc1Cl)Nc1ccc(S(=O)(=O)O)cc1Cl		RT-Y188L	nucleotide incorporation / radiometric	>0.1 µM
O=C(CSc1nnnn1-c1ccc(C2CC2)cc1Cl)Nc1ccc(-c2ccc(OCCN3CCCC3)cc2)cc1Cl	WT		PicoGreen / fluorescence	<1 µM
CCN1c2ncc(CCOc3cccc4c3ccc[n+]4[O-])cc2C(=O)Nc2c(C)cc(Cl)nc21		RT-K103N L100I	nucleotide incorporation / radiometric	0.027 µM
C[C@H](CC(=O)O)C(=O)NC(C)(C)C#Cc1ccc(NC(=O)CSc2nnnn2-c2ccc(C3CC3)cc2Cl)c(Cl)c1		RT-K103 Y181C	PicoGreen / fluorescence	<1 µM
Cc1cc(S(N)(=O)=O)ccc1NC(=O)CSc1nnc(Br)n1-c1c(Cl)cc(C2CCC2)c2ccccc12			nucleotide incorporation / radiometric	<0.05 µM
FC(F)c1nnc2c3ccccc3c(N3CCc4ccccc4C3)nn12	IIIB		RT activity / fluorescence	0.24 µM
N#Cc1cccc2c(-n3c(SCC(=O)Nc4ccc(S(N)(=O)=O)cc4Cl)nnc3C(F)F)cccc12		RT-Y181C	nucleotide incorporation / radiometric	>0.1 µM
CCN1c2ncc(CCOc3ccc(-c4nccn4C)cc3C)cc2C(=O)N(C)c2cccnc21	IIIB		nucleotide incorporation / radiometric	<0.05 µM
CC(C)OC(=O)CNC(=O)c1ccc(NC(=O)CSc2nnc(Br)n2-c2ccc(C3CC3)c3ccccc23)c(Cl)c1		RT-Y181C	nucleotide incorporation / radiometric	<0.05 µM
CCN1c2ncc(CCc3cc[n+]([O-])cc3)cc2C(=O)N(C)c2ccc(F)nc21		RT-Y181C	nucleotide incorporation / radiometric	<1 µM
Cc1ccc2c(c1)CCN(c1nn3c(C4CC4)nnc3c3ccccc13)C2	98US_MSC5016		RT activity / fluorescence	0.55 µM
CCOC(=O)CNC(=O)c1ccc(NC(=O)CSc2nnc(Br)n2-c2ccc(C3CC3)c3ccccc23)c(Cl)c1		RT-Y181C	nucleotide incorporation / radiometric	0.05–0.1 µM
CCN1c2ncc(CCOc3ccc(CC(C)C(=O)O)c4ccccc34)cc2C(=O)N(C)c2ccc(Cl)nc21		RT-K103N Y181C	nucleotide incorporation / radiometric	0.1–1 µM
Cc1ccc(-c2c(OCC(=O)Nc3ccc(C#CC(C)(C)O)cc3Cl)n[nH]c2C)c(Cl)c1	WT		PicoGreen / fluorescence	<1 µM
CCOC(=O)N1CCC(NC(=O)c2ccc(NC(=O)CSc3nnc(Br)n3-c3ccc(CC)c4ccccc34)c(Cl)c2)CC1		RT-Y188L	nucleotide incorporation / radiometric	>0.1 µM
CC(C)(C#Cc1ccc(NC(=O)CSc2nnnn2-c2ccc(C3CC3)cc2Cl)c(Cl)c1)NC(=O)CNc1ccncc1		RT-K103 Y181C	PicoGreen / fluorescence	<1 µM
CCc1ccc(-n2c(Br)nnc2SCC(=O)Nc2ccc(C(=O)N3CCCCC3CO)cc2Cl)c2ccccc12		RT-Y188L	nucleotide incorporation / radiometric	>0.1 µM
CCN1c2ncc(CCOc3ccc(C(=O)NC(C)(C)C(=O)O)cc3C)cc2C(=O)N(C)c2cccnc21	IIIB		nucleotide incorporation / radiometric	<0.05 µM
N#Cc1cc(Cl)cc(Oc2cc(OCc3[nH]nc4nc(N5CCC(N)C5)ccc34)ccc2Cl)c1			nucleotide incorporation / radiometric	<20 µM
CN1CCN(c2cc(N)cc3c2CCN(c2nn4c(C5CC5)nnc4c4ccccc24)C3)CC1	IIIB		RT activity / fluorescence	19.9 µM
CCc1cc(NCc2nc3c(C)ccc(C)c3o2)c(=O)[nH]c1C		RT-Y188H	nucleotide incorporation	0.3948 µM
CCN1c2ncc(CCOc3ccc(-c4ccc(C(=O)O)s4)cc3)cc2C(=O)N(C)c2cccnc21	IIIB		nucleotide incorporation / radiometric	<0.05 µM
CC(C)(C)c1ccc(-n2nnnc2SCC(=O)Nc2ccc(C(=O)NN3CCOCC3)cc2Cl)c(Cl)c1		RT-K103 Y181C	PicoGreen / fluorescence	<1 µM
CCNC(=O)c1ccc(NC(=O)CSc2nnc(Br)n2-c2ccc(CC)c3ccccc23)c(Cl)c1			nucleotide incorporation / radiometric	<0.05 µM
CCN1c2ncc(CCc3ccc4cc[nH]c4c3)cc2C(=O)N(C)c2ccc(Cl)nc21	WT		nucleotide incorporation / radiometric	<1 µM
CC(C)(C)c1ccc(-n2nnnc2SCC(=O)Nc2ccc(NC(=O)c3cccc(O)c3)cc2Cl)c(Cl)c1		RT-K103 Y181C	PicoGreen / fluorescence	<1 µM
COc1cccc2c(-n3c(Br)nnc3SCC(=O)Nc3ccc(C(=O)O)cc3Cl)cccc12			nucleotide incorporation / radiometric	<0.05 µM
CC(C)(C)c1ccc(-n2nnnc2SCC(=O)Nc2ccc(C(=O)N3CCC(C(=O)O)CC3)cc2Cl)c(Cl)c1		RT-K103 Y181C	PicoGreen / fluorescence	<1 µM
CCc1ccc(-n2c(Br)nnc2SCC(=O)Nc2ccc(C(=O)N[C@@H](CO)C(=O)OC)cc2Cl)c2ccccc12			nucleotide incorporation / radiometric	<0.05 µM
CCc1cc(C2CC2)ccc1-n1c(Br)nnc1SCC(=O)Nc1ccc(C(=O)O)cc1Cl		RT-Y188L	nucleotide incorporation / radiometric	>0.1 µM
Cc1cc(OCC(=O)Nc2ccc(S(N)(=O)=O)cc2Cl)cc(Oc2cc(Cl)cc(C#N)c2)c1			nucleotide incorporation / radiometric	<20 µM
CCN1c2ncc(CC(=O)c3ccncc3)cc2C(=O)N(C)c2ccc(Cl)nc21		RT-Y181C	nucleotide incorporation / radiometric	<1 µM
CC(C)(C#Cc1ccc(NC(=O)CSc2nnnn2-c2ccc3ncccc3c2Cl)c(Cl)c1)C(=O)O	WT		PicoGreen / fluorescence	<1 µM
CCc1ccc(-n2c(C)nnc2SCC(=O)Nc2ccc(S(N)(=O)=O)cc2C)c2ccccc12		RT-Y188L	nucleotide incorporation / radiometric	>0.1 µM
N#Cc1cc(C#N)cc(Oc2cc(Cl)cc(OCC(=O)Nc3ccc(S(N)(=O)=O)cc3Cl)c2)c1			nucleotide incorporation / radiometric	<20 µM
CC(C)(C#Cc1ccc(NC(=O)CSc2nnnn2-c2ccc(C3CC3)cc2Cl)c(Cl)c1)NC(=O)C1(C(=O)O)CC1		RT-K103 Y181C	PicoGreen / fluorescence	<1 µM
CCc1ccc(-n2c(Br)nnc2SCC(=O)Nc2ccc(C(=O)O)cc2Cl)c2ccccc12			nucleotide incorporation / radiometric	<0.05 µM
NS(=O)(=O)c1ccc(NC(=O)CSc2nnc(Br)n2-c2ccc(F)c3ccccc23)c(Cl)c1			nucleotide incorporation / radiometric	<0.05 µM
CCN1c2ncc(CCc3cn[nH]c3)cc2C(=O)Nc2c(C)ccnc21		RT-Y181C	nucleotide incorporation / radiometric	<1 µM
NS(=O)(=O)c1ccc(NC(=O)CSc2nncn2-c2ccc(C3CC3)c3ccccc23)c(Cl)c1		RT-Y181C	nucleotide incorporation / radiometric	0.05–0.1 µM
COc1ccc2c(C)ccc(-n3c(Br)nnc3SCC(=O)Nc3ccc(C(=O)O)cc3Cl)c2c1			nucleotide incorporation / radiometric	<0.05 µM
Cc1ccc(-n2c(SCC(=O)Nc3ccc(S(=O)(=O)NC(C)C(=O)O)cc3Cl)nnc2C(F)F)c2c1CCCC2		RT-Y188L	nucleotide incorporation / radiometric	>0.1 µM
Nc1cnc2c(c1)CN(c1nn3c(C4CC4)nnc3c3ccccc13)CC2	IIIB		RT activity / fluorescence	>100 µM
CCc1ccc(-n2c(SCC(=O)Nc3ccc(C(=O)O)cc3Cl)nnc2C(F)(F)F)c2ccccc12			nucleotide incorporation / radiometric	<0.05 µM
O=C(CSc1nnnn1-c1ccc(C2CC2)cc1Cl)Nc1ccc(C(=O)NCc2cc[n+]([O-])cc2)cc1Cl	WT		PicoGreen / fluorescence	<1 µM
CCc1ccc(-n2c(SCC(=O)Nc3ccc(C(=O)O)cc3C)nnc2C(F)F)c2ccccc12			nucleotide incorporation / radiometric	<0.05 µM
CC(C)(C)c1ccc(-n2nnnc2SCC(=O)Nc2ccc(OCC(=O)NCc3ccc(C(=O)O)cc3)cc2Cl)c(Cl)c1	WT		PicoGreen / fluorescence	<1 µM
CCN1c2ncc(CCOc3ccc(C(=O)O)c4ccccc34)cc2C(=O)Nc2c(C)ccnc21		RT-Y188L	nucleotide incorporation / radiometric	>1 µM
CC(C)(O)C#Cc1ccc(NC(=O)CSc2nnnn2-c2cc(C(C)(C)C)ccc2Cl)c(Cl)c1	WT		PicoGreen / fluorescence	<1 µM
CCc1ccc(-n2c(Br)nnc2SCC(=O)Nc2ccc(S(N)(=O)=O)cc2Cl)c2c1CCCC2		RT-Y188L	nucleotide incorporation / radiometric	0.05–0.1 µM
Cc1nnc2ccc(N3CCc4ccccc4C3)nn12	IIIB		RT activity / fluorescence	15.9 µM
COC(C(=O)Nc1ccc(NC(=O)CSc2nnnn2-c2ccc(C(C)(C)C)cc2Cl)c(Cl)c1)c1ccccc1		RT-K103 Y181C	PicoGreen / fluorescence	<1 µM
CNS(=O)(=O)c1ccc(NC(=O)CSc2nnc(C(F)F)n2-c2ccc(C)c3ccccc23)c(Cl)c1		RT-Y181C	nucleotide incorporation / radiometric	<0.05 µM
N#Cc1cc(Cl)cc(Oc2cc(OCc3[nH]nc4ncccc34)ccc2Cl)c1			nucleotide incorporation / radiometric	<20 µM
CCN1c2ncc(CCOc3ccc(C(=O)O)c4c3CCN(C(C)=O)C4)cc2C(=O)N(C)c2cccnc21	WT		nucleotide incorporation / radiometric	<0.1 µM
Cc1ccc(-n2nnnc2SCC(=O)Nc2ccc(-c3cnc[nH]3)cc2Cl)c(Cl)c1	WT		PicoGreen / fluorescence	<1 µM
CCc1ccc(-n2c(Br)nnc2SCC(=O)Nc2ccc(C(=O)NCC(OC)OC)cc2Cl)c2ccccc12		RT-Y188L	nucleotide incorporation / radiometric	>0.1 µM
Cc1ccc(-n2nnnc2SCC(=O)Nc2ccc(-c3ccc(CCO)cc3)cc2Cl)c(Cl)c1	WT		PicoGreen / fluorescence	<1 µM
Cc1ccc(-n2c(SCC(=O)Nc3ccc(S(=O)(=O)NCCN4CCOCC4)cc3Cl)nnc2C(F)F)c2c1CCCC2		RT-Y181C	nucleotide incorporation / radiometric	0.05–0.1 µM
CC(C)(C)c1ccc(-n2nnnc2SCC(=O)Nc2ccc(OCC(=O)NC3CCN(Cc4ccccc4)CC3)cc2Cl)c(Cl)c1		RT-K103 Y181C	PicoGreen / fluorescence	<1 µM
Cc1cc(C2CC2)cc(Cl)c1-n1c(Br)nnc1SCC(=O)Nc1ccc(C(=O)O)cc1Cl			nucleotide incorporation / radiometric	<0.05 µM

Repeating the first 7 entries:

{"compound": "CC(C)(CO)Oc1ccc(NC(=O)CSc2nnnn2-c2ccc(C3CC3)cc2Cl)c(Cl)c1", "mutations": "RT-K103 Y181C", "method": "PicoGreen / fluorescence", "value": "<1 µM"}
{"compound": "COc1cc2c(cc1OC)CN(c1nn3c(C(F)F)nnc3c3ccccc13)CC2", "strain or isolate": "KER2008", "method": "RT activity / fluorescence", "value": "4.05 µM"}
{"compound": "CC(=O)NC(C)(C)C#Cc1ccc(NC(=O)CSc2nnnn2-c2ccc(C3CC3)cc2Cl)c(Cl)c1", "mutations": "RT-K103 Y181C", "method": "PicoGreen / fluorescence", "value": "<1 µM"}
{"compound": "CCc1ccc(-n2c(Br)nnc2SCC(=O)Nc2ccc(C(=O)NCCC#N)cc2Cl)c2ccccc12", "mutations": "RT-Y181C", "method": "nucleotide incorporation / radiometric", "value": "0.05–0.1 µM"}
{"compound": "CCN1c2ncc(CCOc3ccc(C(=O)O)c4c3CCCC4)cc2C(=O)N(C)c2ccc(Cl)nc21", "strain or isolate": "WT", "method": "nucleotide incorporation / radiometric", "value": "<0.1 µM"}
{"compound": "Cc1cc(C2CC2)c2ccccc2c1-n1c(Br)nnc1SCC(=O)Nc1ccc(C(=O)O)cc1Cl", "mutations": "RT-Y188L", "method": "nucleotide incorporation / radiometric", "value": ">0.1 µM"}
{"compound": "CC(C)(C#Cc1ccc(NC(=O)CSc2nnnn2-c2ccc(C(C)(C)C)cc2Cl)c(Cl)c1)OCC(=O)Nc1ccon1", "mutations": "RT-K103 Y181C", "method": "PicoGreen / fluorescence", "value": "<1 µM"}